{
  "source": "patent US8507530B2",
  "about": "“Pyridine derivatives substituted by heterocyclic ring and phosphonoamino group, and anti-fungal agent containing same” (dated 2013)",
  "test_system": "C. albicans E81022 strain",
  "experiment": "Experimental systemic candidal infection model in mice",
  "conditions": "caudal vein, twice every 6 hours, female ICR mice infected i.v. with C. albicans E81022, observed until 14 days after infection",
  "data": [
    {"smiles": "O=P([O-])([O-])Nc1ncccc1-c1cc(Cc2ccc(COc3ccccn3)cc2)no1.[Na+].[Na+]", "values": [
      {"measurement": "Mean Survival Days", "setting": "2.5 mg/kg", "result": 13.6, "unit": "days"},
      {"measurement": "Mean Survival Days", "setting": "10 mg/kg", "result": 13.2, "unit": "days"}
    ]}
  ]
}
